We go through one compound from PMC7806871 (2021).

Chains of the proteins cited; added tags and fusions are not shown. Residues count along the entry.
UniProt O05442, 648-846 limits assumed: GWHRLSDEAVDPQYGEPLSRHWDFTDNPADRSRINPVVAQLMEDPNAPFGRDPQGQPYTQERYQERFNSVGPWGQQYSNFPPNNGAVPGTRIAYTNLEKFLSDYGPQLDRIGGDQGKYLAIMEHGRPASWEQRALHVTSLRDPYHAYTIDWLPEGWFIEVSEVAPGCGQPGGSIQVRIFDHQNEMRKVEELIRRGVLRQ

The target of this assay is TNT (tuberculosis necrotizing toxin), rTNT (Mycobacterium tuberculosis, UniProt O05442). In words: NAD+ hydrolysis, NADH fluorescence assay. The settings on record: 75 nM TNT, 200 µM NAD+.

Take `NC(=O)c1ccc[n+]([C@@H]2O[C@H](COP(=O)(O)OP(=O)(O)OC[C@H]3O[C@@H](n4cnc5c(N)ncnc54)[C@H](O)[C@@H]3O)[C@@H](O)[C@H]2O)c1`: the “NAD+ hydrolysis, NADH fluorescence assay” value is recorded as “rTNT purified from IFT-TNT complex, but not from inclusion bodies, could hydrolyse NAD^+”.
